The source of these data is patent publication US6388175B1, “Control of leaf scald disease” (priority 1995, dated 2002).

The experiment has as its system E. coli.

In the case of albicidin, the Minimum inhibitory concentration worked out at 0.05 µg/mL.
